Pooled drug test results. Numbers come from NIAID ChemDB, via PubChem.

Conditions beyond the fields shown may differ between rows. Percent inhibition refers to the dose given; in toxicity tests it is the harm to the cells. ICn: concentration for n% inhibition. An empty or dashed field is not shown. MIC bound comes from a single tested concentration.

compound	test	organism	target	strain	method	endpoint	dose	value
C1CC[N+]2(CC1)CCCCC2.[Br-]	culture	Mycobacterium tuberculosis		H37Rv		MIC		>100 µg/mL
C/C(=N\N=C(/[Se])N1CCN(c2ccc(F)cc2)CC1)c1ccccn1	culture	Mycobacterium tuberculosis		H37Rv	BACTEC	MIC bound		≤12.5 µg/mL
O=C(O)c1c(-c2ccccc2O)cnc2ccc3c(S(=O)(=O)[O-])cccc3c12.[Na+]	culture	Mycobacterium tuberculosis		H37Rv		MIC		>100 µg/mL
N#Cc1nc(-c2ccco2)c(-c2ccco2)nc1C#N	culture	Mycobacterium tuberculosis		H37Rv	resazurin	inhibition	6.25 µg/mL	75%
Oc1ccc(-c2cncc(Nc3ccc(F)c(Cl)c3)n2)cc1	target	Cytomegalovirus	UL97 kinase			IC50		<1 µM
O=C1NC(=O)C2C3C=CC(C12)C1C2C(=O)NC(=O)C2C31	culture	Mycobacterium tuberculosis		H37Rv	BACTEC	inhibition	12.5 µg/mL	9%
CN(c1ccccc1)S(=O)(=O)c1ccc(NC(=O)CC(=O)c2ccccc2)cc1	culture	Mycobacterium tuberculosis		H37Rv		MIC		>100 µg/mL
CCN(CC)CCN(C(=O)OCCOC(=O)N(CCN(CC)CC)c1cccc2sc3ccccc3c(=O)c12)c1cccc2sc3ccccc3c(=O)c12	culture	Mycobacterium tuberculosis		H37Rv	BACTEC	inhibition	12.5 µg/mL	-9%
Brc1cc[c]([Pb]([c]2ccccc2)([c]2ccccc2)[c]2ccc(Br)cc2)cc1	culture	Mycobacterium tuberculosis		H37Rv		MIC		50 µg/mL
Nc1ncc(-c2ccc3ccccc3c2)nc1N1CCN(c2ccncc2)CC1	target	Cytomegalovirus	UL97 kinase			IC50		<1 µM
CCCCCNC(C)C(=O)c1ccccc1.Cl	culture	Mycobacterium tuberculosis		H37Rv		MIC		>100 µg/mL
COC(=O)NC1C(C)OC(OC2C/C=C(\C)C3C=C[C@H]4C(OC5CC(OC6CCC(OC7CC(O)C(OC8CCC(O)C(C)O8)C(C)O7)C(C)O6)C(OC(C)=O)C(C)O5)C(C)CC(C)[C@@H]4[C@@]3(C)C([O-])=C3C(=O)OC4(CC(C=O)=CC(O)[C@@H]4/C=C\2C)C3=O)CC1(C)[N+](=O)[O-].[Na+]	culture	Mycobacterium tuberculosis		H37Rv	BACTEC	MIC		>4 µg/mL
NC(=O)c1ccc(-c2cnc(N)c(N3CCN(c4ccncc4)CC3)n2)cc1	target	Cytomegalovirus	UL97 kinase			IC50		<10 µM
Fc1ccc(N2CCCCC2)c(NC(=S)c2ccncc2)c1	host protein		MNK1		kinase activity	inhibition	10 µM	6.2%
c1coc(CNc2nccnc2-c2cc3ccccc3o2)c1	target	Cytomegalovirus	UL97 kinase			inhibition	10 µM	>15%
Cc1cc(C)c(-c2cc(O)c3ccccc3c2O)c(C)c1	culture	Mycobacterium tuberculosis		H37Rv		MIC		50 µg/mL
CCN(CC)c1ccc2nc3ccc(N=Nc4ccc(O)cc4)cc3[n+](-c3ccccc3)c2c1.[Cl-]	culture	Mycobacterium tuberculosis		H37Rv	BACTEC	inhibition	12.5 µg/mL	95%
CC(=O)c1ccc(N2CCN(c3cncc(-c4csc5ccccc45)n3)CC2)cc1	target	Cytomegalovirus	UL97 kinase			inhibition	1 µM	<50%
COc1cc(/C=N/NC(=O)CCCCCCCCC(=O)N/N=C/c2ccc(O)c(OC)c2)ccc1O	culture	Mycobacterium tuberculosis		H37Rv	BACTEC	inhibition	12.5 µg/mL	9%
NC(=O)CS	culture	Mycobacterium tuberculosis		H37Rv		MIC		25 µg/mL
Fc1ccc(-c2cncc(N3CCN(c4ccncc4)CC3)n2)cc1	target	Cytomegalovirus	UL97 kinase			inhibition	1 µM	<50%

Repeating the final 2 entries:

compound,test,organism,target,strain,method,endpoint,dose,value
NC(=O)CS,culture,Mycobacterium tuberculosis,,H37Rv,,MIC,,25 µg/mL
Fc1ccc(-c2cncc(N3CCN(c4ccncc4)CC3)n2)cc1,target,Cytomegalovirus,UL97 kinase,,,inhibition,1 µM,<50%